Measured values as given in PMC7948407 (2020).
pKd: −log10 of the molar value.

Molecular target: SAT C-terminal C10 peptide C-terminal 10 residues (Mycobacterium tuberculosis) (UniProt P95231)

Q: “Cysteine synthase (MtCS) (from UniProt P9WP55)” was tested. Which pKd did it give?
A: The pKd was 6.00.
